A mixed list of measured activities; the numbers were collected in NIAID ChemDB.

Common to all: whole-cell or culture tests; species: HIV-1

ECn: concentration that inhibits the pathogen or its effect by n%. An empty or dashed field is not shown. Neighbouring rows are from separate reports.

| structure | conditions | strain | cells | endpoint | method | changes | value |
|---|---|---|---|---|---|---|---|
| CN(C)[C@@H]1C(=O)C(C(=O)NCN2CCCC2)=C(O)[C@@]2(O)C(=O)C3=C(O)c4c(O)cccc4[C@@](C)(O)[C@H]3C[C@@H]12 |  | RF | CEM | EC50 | cytopathic effect / XTT |  | 45.5 µM |
| C[C@H](CC[C@H](O)C(C)(O)CO)[C@H]1CC[C@@]2(C)C3=CC[C@H]4C(C)(C)C(=O)CC[C@]4(C)C3=CC[C@]12C |  |  | MT-4 | EC50 | cytopathic effect / microscopy |  | <7.8 µM |
| Cc1cn([C@H]2C=C[C@@H](CO)O2)c(=O)[nH]c1=O |  | ERS104pre | PBMC | EC50 | p24 |  | 11 µM |
| C[C@H](CC(=O)C[C@@H](C)[C@H]1C[C@H](O)[C@@]2(C)C3=C(C(=O)C[C@]12C)[C@@]1(C)CCC(=O)C(C)(C)[C@@H]1C[C@@H]3O)C(=O)O |  |  | MT-4 | EC50 | cytopathic effect / microscopy |  | ~1000 µM |
| C=CCN1C(=NC#N)N(CC=C)[C@H](Cc2ccccc2)[C@H](O)[C@@H](O)[C@H]1Cc1ccccc1 |  | RF | MT-2 | EC50 | hybridisation |  | <51 µM |
| C[C@H](Cn1cnc2c(N)ncnc21)OCP(=O)(O)O |  | IIIB | CEM | EC50 | syncytia |  | 1.1 µg/mL |
| O=c1c2ccccc2n2nnc3ccc(NCCCN4CCN(CCCNc5ccc6nnn7c8ccccc8c(=O)c5c67)CC4)c1c32 |  | CLADE B | PBL | EC50 | p24 |  | 0.0056 µM |
| Nc1nc(N)c(C=O)c(OCCOCP(=O)(O)O)n1 |  | IIIB | CEM | EC50 | syncytia |  | 1.3 µg/mL |
| O=C1N(Cc2ccc(CO)cc2)[C@H](Cc2ccccc2)[C@H](O)[C@@H](O)[C@@H](Cc2ccccc2)N1Cc1ccc(CO)cc1 |  | NL4-3 | MT-4 | EC95 | p24 | PR-L10R M46I V82T | 0.2 µM |
| C=C(C)[C@]12C[C@@H](COC(=O)c3ccccc3)[C@@]34OC5(O[C@@H]1[C@@H]3[C@@H]1O[C@]1(COC(=O)c1ccccc1)[C@@H](O)[C@@]1(O)[C@H]4[C@H]([C@H](C)[C@@H]1O)[C@@H](C)CCCCCC[C@H]5O)O2 |  | NL4-3 | MT-4 | EC50 | luciferase |  | 0.00361 µM |
| N#CN=C1N(CC2CCCC2)[C@H](Cc2ccccc2)[C@H](O)[C@@H](O)[C@@H](Cc2ccccc2)N1CC1CCCC1 |  | RF | MT-2 | EC50 | hybridisation |  | <0.35 µM |
| O=c1[nH]cnc2c1ncn2[C@H]1CC[C@@H](CO)O1 |  | IIIB-Nevirapine(1.0)(RT-Y181C) | CEM | EC50 | syncytia | RT-Y181C | 10 µM |
| CC(C)CN(C[C@@H](O)[C@H](Cc1cc(F)cc(F)c1)NC(=O)O[C@H]1CCO[C@H]2OCC[C@H]21)S(=O)(=O)c1ccc2nc(NC(C)C)sc2c1 |  | ERS104pre | PBMC | EC50 | p24 / luminescence | L63P | 0.003 µM |
| NCCCCCCNC(=O)/C=C/c1cn([C@H]2C=C[C@@H](CO)O2)c(=O)[nH]c1=O |  | IIIB | MT-4 | EC50 | RT activity |  | >100 µM |
| N#CN=C1N(Cc2cccc([N+](=O)[O-])c2)[C@H](Cc2ccccc2)[C@H](O)[C@@H](O)[C@@H](Cc2ccccc2)N1Cc1cccc([N+](=O)[O-])c1 |  | RF | MT-2 | EC50 | hybridisation |  | <17.7 µM |
| CC(C)[C@@H](C)/C=C/[C@@H](C)[C@H]1CCC2[C@@]34C=C[C@]5(C[C@@H](O)CC[C@]5(C)C3CC[C@@]21C)OO4 |  |  | MT-4 | EC50 | cytopathic effect / microscopy |  | >15.6 µM |
| O=C1N(Cc2ccc(CO)cc2)[C@H](Cc2ccccc2)[C@H](O)[C@@H](O)[C@@H](Cc2ccccc2)N1Cc1ccc(CO)cc1 |  | Clinical isolate D2 | PBMC | EC50 | p24 |  | 0.018 µM |
| NC(N)=NS(=O)(=O)c1ccc(Nc2c3ccccc3nc3c(C(=O)NC(CO)(CO)CO)cccc23)cc1 |  | RF | CEM | EC50 | cytopathic effect / XTT |  | >3.3 µM |
| CC(C)=CCN1Cc2cc(Cl)cc3[nH]c(=S)n(c23)C[C@@H]1C |  | IIIB-Nevirapine(0.1)(RT-Y181C) | CEM | EC50 | syncytia | RT-Y181C | 7.6 µg/mL |
| Cc1cn([C@H]2C[C@H](N=[N+]=[N-])[C@@H](CO)O2)c(=O)[nH]c1=O |  | IIIB | MT-4 | EC50 | RT activity |  | 0.0098 µM |
| C[C@H](CC(=O)C[C@@H](C)[C@H]1CC(=O)[C@@]2(C)C3=C(C(=O)C[C@]12C)[C@@]1(C)CCC(=O)C(C)(C)[C@@H]1C[C@@H]3O)C(=O)O |  |  | MT-4 | EC50 | cytopathic effect / microscopy |  | >1000 µM |
| O=C(O)c1c(Br)c(Br)c(Br)c(Br)c1-c1c2ccc(=O)c(O)c-2oc2c(O)c(O)ccc12 |  | IIIB | MAGI | EC50 | β-galactosidase |  | 12.8 µM |
| O=c1[nH]cnc2c1ncn2[C@H]1CC[C@@H](CO)O1 |  | LAI | H9 | EC50 | p24 |  | 0.465 µM |
| CC(C)[C@@H](C)/C=C/[C@@H](C)[C@H]1CC[C@H]2C3=CC=C4C[C@@H](O)CC[C@]4(C)[C@H]3CC[C@]12C |  |  | MT-4 | EC50 | cytopathic effect / microscopy |  | >1000 µM |
| C=C(C)[C@H]1[C@@H]2OC3(/C=C/C=C/CCCCC)O[C@@H]2[C@@H]2[C@@H]4O[C@]4(CO)[C@@H](O)[C@]4(O)C(=O)C(C)=C[C@H]4[C@@]2(O3)[C@@H]1C |  | NL4-3 |  | EC50 | luciferase |  | 0.00586 µM |
| Nc1ncnc2c1ncn2CCOCP(=O)(O)O |  | IIIB | CEM | EC50 | syncytia |  | 2.9 µg/mL |
| CC(C)CN(C[C@@H](O)[C@H](Cc1ccc(F)cc1)NC(=O)O[C@H]1CCO[C@H]2OCC[C@H]21)S(=O)(=O)c1ccc2nc(NC(C)C)sc2c1 | clinical isolate, multidrug-resistant | Clinical isolate | PBMC | EC50 | p24 / luminescence | L10I K14R L33I M36I M46I F53I K55R I62V L63P A71V G73S V82A L90M I93L | 0.0032 µM |
| Cc1cn([C@H]2C[C@H](N=[N+]=[N-])[C@@H](CO)O2)c(=O)[nH]c1=O |  | IIIB-BHAP)(0.1)(RT-L100I | CEM | EC50 | syncytia | RT-L100I | 0.008 µM |
| CC(=O)O[C@H](C)[C@@H]1C2=C(C(=O)C[C@]1(C)O)C(=O)c1c(ccc(-c3ccc4c(c3O)C(=O)C3=C(C4=O)[C@@H]([C@@H](C)OC(C)=O)[C@@](C)(O)CC3=O)c1O)C2=O |  | RF | CEM | EC50 | cytopathic effect / XTT |  | >0.3 µM |
| C=CCN1C(=O)N(CC=C)[C@H](Cc2ccccc2)[C@H](O)[C@@H](O)[C@H]1Cc1ccccc1 |  | RF | MT-2 | EC50 | hybridisation |  | <4.7 µM |
| CC(C)(C)NC(=O)[C@@H]1C[C@@H]2CCCC[C@@H]2CN1C[C@@H](O)[C@H](Cc1ccccc1)NC(=O)[C@H](CC(N)=O)NC(=O)c1ccc2ccccc2n1 |  | NL4-3 | MT-4 | EC95 | p24 | PR-L10R M46I L63P V82T I84V | 0.2 µM |
| CN(C)[C@H]1C(=O)C(C(=O)NCN2CCN(C(=N)N=C(N)N)CC2)=C(O)[C@]2(O)C(=O)C3=C(O)c4c(O)cccc4[C@](C)(O)[C@@H]3C[C@H]12 |  | RF | CEM | EC50 | cytopathic effect / XTT |  | 0.3 µM |
| Nc1ncnc2c1ncn2CCOCP(=O)(O)O |  | HXB2D (RT-K65R) | PBMC | EC50 | p24 | RT-K65R | 12.5 µM |
| CN(C)C1C(=O)C(C(=O)NCNCCC(=O)O)=C(O)C2(O)C(=O)C3=C(O)c4c(O)cccc4C(C)(O)C3CC12 |  | RF | CEM | EC50 | cytopathic effect / XTT |  | >111 µM |
| O=C1N(Cc2cccc(O)c2)[C@H](Cc2ccccc2)[C@H](O)[C@@H](O)[C@@H](Cc2ccccc2)N1Cc1cccc(O)c1 |  | RF | MT-2 | EC50 | hybridisation |  | <0.054 µM |

For reference, 4 entries again:

structure	conditions	strain	cells	endpoint	method	changes	value
CC(C)[C@@H](C)/C=C/[C@@H](C)[C@H]1CCC2[C@@]34C=C[C@]5(C[C@@H](O)CC[C@]5(C)C3CC[C@@]21C)OO4			MT-4	EC50	cytopathic effect / microscopy		>15.6 µM
Nc1ncnc2c1ncn2CCOCP(=O)(O)O		HXB2D (RT-K65R)	PBMC	EC50	p24	RT-K65R	12.5 µM
O=C1N(Cc2ccc(CO)cc2)[C@H](Cc2ccccc2)[C@H](O)[C@@H](O)[C@@H](Cc2ccccc2)N1Cc1ccc(CO)cc1		Clinical isolate D2	PBMC	EC50	p24		0.018 µM
O=C(O)c1c(Br)c(Br)c(Br)c(Br)c1-c1c2ccc(=O)c(O)c-2oc2c(O)c(O)ccc12		IIIB	MAGI	EC50	β-galactosidase		12.8 µM